Anti-infective test results gathered from many reports (values: NIAID ChemDB through PubChem).

Shared fields: host cell toxicity; cells: C8166; endpoint: CC50

CCn: concentration that lowers growth or viability of the cells by n%. Conditions beyond the fields shown may differ between rows.

smiles	value
Nc1nc(Cl)nc2c1ncn2[C@H]1C=C[C@@H](CO)O1	<20 µM
O=c1c(O)c(-c2ccc(O)c(O)c2)oc2cc(OC3OC(CO)C(O)C(O)C3O)cc(O)c12	>250 µg/mL
CC(C)(C)CC(C)(C)c1ccc(OCCOCCOCCOCCOCCOCCOCCOCCOCCO)cc1	>10 µg/mL
CCCCCn1nnc2c(C)nn([C@@H]3O[C@H](CO)[C@@H](O)[C@H]3O)c2c1=O	280 µM
CCCCOn1c(CCC)nc2c(C)cccc21	40 µM
Cc1cn([C@H]2C[C@H](N=[N+]=[N-])[C@@H](COP(=O)(OCc3ccc(OC(=O)C(C)(C)C)cc3)OC[C@H]3CC[C@@H](n4cnc5c(=O)[nH]cnc54)O3)O2)c(=O)[nH]c1=O	55 µM
CCN1c2ncccc2N(C)C(=O)c2oc3cccnc3c21	175 µM
O=C(OCC1OC(OCCc2ccccc2)C(O)C(O)C1O)c1cc(O)c(O)c(O)c1	200 µg/mL
Nc1ccn([C@H]2CC[C@@H](CO)O2)c(=O)n1	48 µM
CO[C@H]1/C=C/O[C@@]2(C)Oc3c(C)c(O)c4c(c3C2=O)C(=O)C(SCCOC(=O)CCC(=O)OC[C@H]2O[C@@H](n3cc(C)c(=O)[nH]c3=O)CC2O)=C(NC(=O)/C(C)=C\C=C\[C@H](C)[C@H](O)[C@@H](C)[C@@H](O)[C@@H](C)[C@H](OC(C)=O)[C@@H]1C)C4=O	>30 µM
CC(C)(C)OC(=O)[C@@H]1CCCN1C[C@@H](O)[C@H](Cc1ccccc1)NC(=O)[C@H](CC(N)=O)NC(=O)c1ccc2ccccc2n1	>100 µM
O=c1c(O)c(-c2ccc(O)cc2)oc2cc(O)cc(O)c12	70 µg/mL
CCOn1c(C)nc2c(C)cccc21	40 µM
Cc1cn([C@H]2C[C@H](N=[N+]=[N-])[C@@H](CO)O2)c(=O)nc1NNc1ccccc1	150 µM
CC(C)=CCOn1c(C=C(C)C)nc2c(C)cccc21	50 µM
CO[C@H]1/C=C/O[C@@]2(C)Oc3c(C)c(O)c4c(c3C2=O)C(=O)C(SCCOC(=O)CCCC(=O)OC[C@@H]2O[C@H](n3cc(C)c(=O)[nH]c3=O)C[C@H]2N=[N+]=[N-])=C(NC(=O)/C(C)=C\C=C\[C@H](C)[C@@H]2OC(C)(C)O[C@@H]([C@@H](C)[C@H](OC(C)=O)[C@@H]1C)[C@@H]2C)C4=O	>30 µM
C=CCOn1c(C=C)nc2ccc(C)cc21	20 µM
CC(C)(C)CC(C)(C)c1ccc(OCCOCCOCCOCCOCCOCCOCCOCCOCCOCCOCCO)cc1	>10 µg/mL
O=C(/C=C/c1ccc(O)cc1)OC[C@H]1O[C@@H](Oc2c(-c3ccc(O)cc3)oc3cc(O)cc(O)c3c2=O)[C@H](O)[C@@H](O)[C@@H]1O	>200 µg/mL
CCN1c2ncccc2N(C)C(=O)c2sc3cccnc3c21	73 µM
CCCCC[C@H](O)/C=C/[C@H]1C=CC(=O)[C@@H]1CCCCCCC(=O)O	140 µM
C[C@@H](Cn1cnc2c(N)ncnc21)OCP(=O)(O)O	>300 µM
Cc1cn([C@H]2C[C@H](N=[N+]=[N-])[C@@H](CO)O2)c(=O)nc1N(C)C	>1000 µM
CC(=O)Oc1ccc(COP(=O)(OC[C@@H]2C[C@@H](N=[N+]=[N-])[C@H](n3cc(C)c(=O)[nH]c3=O)O2)OC[C@H]2O[C@@H](n3cc(C)c(=O)[nH]c3=O)C[C@@H]2N=[N+]=[N-])cc1	125 µM
C=CCOn1c(C=C)nc2ccc(OC)cc21	80 µM
Cc1cn([C@H]2C[C@H](N=[N+]=[N-])[C@@H](CO)O2)c(=O)nc1NNCCO	150 µM
CCN1c2ncccc2N(C)C(=S)c2sc3cccnc3c21	38 µM
Cc1cn([C@H]2C[C@H](N=[N+]=[N-])[C@@H](CO)O2)c(=O)[nH]c1=O	>1000 µM
NC(=O)c1nn([C@@H]2O[C@H](CO)[C@@H](O)[C@H]2O)cc1I	8 µM
CCN1c2ncccc2N(C)C(=O)c2oc3ccccc3c21	80 µM
C[C@H](Cn1cnc2c(N)nc(N)nc21)OCP(=O)(O)O	>300 µM
Cc1cn([C@@H]2C[C@@H](N=[N+]=[N-])[C@H](COP(=O)(OCc3ccc(OC(=O)C(C)(C)C)cc3)OC[C@H]3O[C@@H](n4cc(C)c(=O)[nH]c4=O)C[C@@H]3N=[N+]=[N-])O2)c(=O)[nH]c1=O	20 µM
NC(=O)c1nn([C@@H]2O[C@H](CO)[C@@H](O)[C@H]2O)cc1N	>1840 µM
C[C@H](Cn1cnc2c(N)ncnc21)OCP(=O)(O)O	>500 µM
CC(C)(C)OC(=O)[C@@H]1CCCN1C[C@@H](O)[C@H](Cc1ccccc1)NC(=O)[C@H](CC(N)=O)NC(=O)c1ccc2ccccc2c1	>10 µM
Cc1c([N+](=O)[O-])c(C(N)=O)nn1[C@@H]1O[C@H](CO)[C@@H](O)[C@H]1O	>1650 µM
CSC[C@H](NC(=O)c1ccc2ccccc2n1)C(=O)N[C@@H](Cc1ccccc1)[C@H](O)CN1CCCC[C@H]1C(=O)NC(C)(C)C	>10 µM
CCCCCOn1c(CCCC)nc2c(C)cccc21	40 µM

The first 4 rows once more:

smiles,value
Nc1nc(Cl)nc2c1ncn2[C@H]1C=C[C@@H](CO)O1,<20 µM
O=c1c(O)c(-c2ccc(O)c(O)c2)oc2cc(OC3OC(CO)C(O)C(O)C3O)cc(O)c12,>250 µg/mL
CC(C)(C)CC(C)(C)c1ccc(OCCOCCOCCOCCOCCOCCOCCOCCOCCO)cc1,>10 µg/mL
CCCCCn1nnc2c(C)nn([C@@H]3O[C@H](CO)[C@@H](O)[C@H]3O)c2c1=O,280 µM